Experimental data taken from PubChem BioAssay AID493005 (National Center for Advancing Translational Sciences (NCATS), 2010).
Only a part is listed here, and it is no random draw. The source made the active and inactive calls. Calls come from the whole dose curve; as a rule, active = well fitted inhibition curve with a large enough effect in the main read-out, with a control signal flat (not every such curve was filed as active); inconclusive = small, poorly fitted or top-dose-only effect, or effect the other way, or a change in a side signal; inactive = no such curve, though single readings can be large or run the other way.

Amino acid sequences for entries named in this document (tags omitted).
UniProt Q99816, whole entry: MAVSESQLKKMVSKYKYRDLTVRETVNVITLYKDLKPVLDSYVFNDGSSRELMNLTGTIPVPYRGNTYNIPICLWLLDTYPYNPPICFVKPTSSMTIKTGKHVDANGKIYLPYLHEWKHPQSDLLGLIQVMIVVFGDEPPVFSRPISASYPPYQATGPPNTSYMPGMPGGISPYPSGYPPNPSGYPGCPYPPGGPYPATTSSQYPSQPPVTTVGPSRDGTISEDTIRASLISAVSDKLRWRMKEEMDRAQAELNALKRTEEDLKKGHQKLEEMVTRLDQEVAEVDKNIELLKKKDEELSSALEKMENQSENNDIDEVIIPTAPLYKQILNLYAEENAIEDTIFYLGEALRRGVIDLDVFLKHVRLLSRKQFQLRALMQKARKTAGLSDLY

The compounds below were run against Tumor susceptibility gene 101 protein (Homo sapiens) (UniProt Q99816) (assay: qHTS Assay for Iinhibitors of HIV-1 Budding by Blocking the Interaction of PTAP/TSG101). Settings: Fluorescence polarization, FITC-PTAP peptide / Tsg101 binding; at 115 µM (top of the series).
Source text: NIH Molecular Libraries Probe Production Network [MLPCN] NIH Chemical Genomics Center [NCGC] MLPCN Grant: 1 R03 MH087464-01A1 PI Name: Dr. Eric Freed, NCI NCGC Assay Overview: Stages of the HIV-1 replication cycle, specifically virus assembly and release, provide underexploited targets for the development of novel antiviral inhibitors. The late stages of HIV-1 replication are mediated by the Gag precursor protein, Pr55Gag. Expression of Pr55Gag is both necessary and sufficient for the production of virus-like particles from Gag-expressing cells. The Gag protein hijacks key host proteins involved in endocytic machinery of the host cell to promote endosomal processing and viral budding. The budding process requires a direct interaction between a […] (PTAP) motif in the p6 domain of Gag and the cellular endosomal sorting protein known as Tsg101. In this way, the Gag PTAP motif promotes the host cells to recruit viral particles to the plasma membrane where the new viral particles are released, effectively turning the host cells into viral factories. A fluorescence anisotropy assay has been developed to quantitatively measure the PTAP-Tsg101 interaction which can be used to screen for inhibitors of this interaction.
NCGC Assay Protocol Summary: Two uL of the Tsg101 binding domain in buffer (10 mM HEPES pH 7.5; 0.15 M NaCl, 0.01% Tween 20; 3 mM EDTA;0.1 mM TCEP) was dispensed into Greiner black MB 1536-well plates (final concentration 10 uM). Then, 23 nL of compounds or DMSO were delivered to each well using a pin tool. Finally, 2 uL of a FITC-labeled peptide containing the PTAP motif (1) in the same buffer was dispensed (50 nM final concentration) and the binding was allowed to proceed for 20 min. at r.t. Fluorescent polarization was determined using FITC excitation and polarized emission filters on a Perkin Elmer Viewlux. Keywords: Tsg101, PTAP, Gag, HIV, fluorescent polarization, MLSMR, MLPCN, NIH Roadmap, qHTS, NCGC
Note: % of control where 0% means no effect.

| SMILES | activity change, negative = inhibition |
| --- | --- |
| CP(=O)(Nc1ccc2c(c1)OCCO2)Oc1ccccc1 (stereo not given) | inactive: -0.623% |
| CCOP(C)(=S)SCC(=O)NC(C)(CC)C(=O)O (stereo not given) | inactive: -8.37% |
| CP(=O)(Nc1ccc(SC(F)(F)F)cc1)Oc1ccc(F)cc1 (stereo not given) | inactive: 2.42% |
| CN(C)C(=O)c1c([N+](=O)[O-])cc([N+](=O)[O-])cc1[N+](=O)[O-] | inactive: -1.57% |
| CP(=O)(Nc1ccc(Cl)cc1)Oc1ccc(F)cc1 (stereo not given) | inactive: -6.45% |
| CC(C)(C)c1ccc(OP(C)(=O)O)cc1 | inactive: -5.32% |
| COc1ccccc1OP(C)(=O)Nc1ccccc1Br (stereo not given) | inactive: -0.0578% |
| CP(=O)(Oc1ccccc1)N1CCOC1=O (stereo not given) | inactive: -1.42% |
| CCc1ccc(OP(C)(=O)Nc2cccnc2)cc1 (stereo not given) | inactive: -7.06% |
| COc1ccccc1OP(C)(=O)Nc1c(C)n(C)n(-c2ccccc2)c1=O (stereo not given) | inactive: -10.2% |
| O=C(OCCCN1CCCC1)C(O)(c1ccccc1)C1CCCCC1 (stereo not given) | inactive: 1.51% |
| CCN(CC)CC(O)COC(=O)C(O)(c1ccccc1)C1CCCCC1 (stereo not given) | inactive: -5.65% |
| COc1ccc(OP(C)(=O)Nc2ccc(Br)cc2)cc1 (stereo not given) | inactive: 0.98% |
| CP(=O)(OC12CC3CC(CC(C3)C1)C2)OC12CC3CC(CC(C3)C1)C2 | inactive: -4.83% |
| CCOC(=O)c1ccc(NP(C)(=O)Oc2ccc(Cl)cc2)cc1 (stereo not given) | inactive: 0.0631% |
| Nc1ccc2c(ccc3cccnc32)n1.O=[N+]([O-])c1cc([N+](=O)[O-])c(O)c([N+](=O)[O-])c1 | inactive: -9.76% |
| CP(=O)(OCCOc1ccccc1)OCCOc1ccccc1 | inactive: -12.7% |
| CP(=O)(Nc1ccc(Cl)cc1Cl)Oc1ccccc1 (stereo not given) | inactive: -7.31% |
| CCCCCCCCCCCCCCCC1C[N+](C)(C)CCOP(C)(=O)O1 (stereo not given) | inactive: 2.6% |
| COc1ccc(OP(C)(=O)Nc2ccccc2Br)cc1 (stereo not given) | inactive: -3.26% |
| COc1ccccc1OP(C)(=O)Nc1ccc(C)c(C)c1 (stereo not given) | inactive: -12% |
| Cc1cc(C)cc(OP(C)(=O)Nc2cccc(C(F)(F)F)c2)c1 (stereo not given) | inactive: -0.758% |
| CCc1ccc(OP(C)(=O)O)cc1 | inactive: -2% |
| CP(=O)(Nc1ccccn1)Oc1ccccc1 (stereo not given) | inactive: -7.91% |
| COc1ccccc1OP(C)(=O)Nc1ccc(C)cc1C (stereo not given) | inactive: -4.98% |
| O=[N+]([O-])c1cc([N+](=O)[O-])c(Nc2ccccn2)c([N+](=O)[O-])c1 | inactive: -0.684% |
| Cc1c(NP(C)(=O)Oc2ccc(C(C)C)cc2)c(=O)n(-c2ccccc2)n1C (stereo not given) | inactive: -1.14% |
| CN(C)CCOC(=O)C(O)(c1ccccc1)C1CCCC1 (stereo not given) | inactive: -3.38% |
| COc1ccc(OP(C)(=O)Nc2ccccn2)cc1 (stereo not given) | inactive: -9.5% |
| COc1ccccc1OP(C)(=O)Nc1ccc(Br)cc1 (stereo not given) | inactive: -2.36% |
